Experimental findings from paper PMC10378424, “A Shiga Toxin B-Subunit-Based Lectibody Boosts T Cell Cytotoxicity towards Gb3-Positive Cancer Cells” (2023) are described below.

This experiment concerns the target StxB-scFv UCHT1 lectibody (Shigella dysenteriae). Put plainly: SEC. Background: Size exclusion chromatography separates by hydrodynamic size, large species first.

On to StxB-scFv UCHT1 lectibody, for which the stoichiometry N worked out at 2.

For orientation: stoichiometry N means the number of molecules, sites or subunits per partner or assembly.
